Results of unrelated studies side by side (data: NIAID ChemDB).

Common to all: tests on isolated targets; species: HIV-1; target: gp120; measure: IC50

ICn: concentration for n% inhibition. Rows are shuffled and stem from different studies. Blank or dashed fields: not listed here.

SMILES	strain	method	value
COC(=O)C(=O)N1CCC[C@@H]1C(=O)N[C@H](Cc1ccccc1)C(=O)OCc1ccccc1		ELISA	300 µM
O=C(/C=C/c1ccc(O)c(O)c1)O[C@@H]1CC(O)(C(=O)O)C[C@@H](OC(=O)/C=C/c2ccc(O)c(O)c2)C1O	LAI	binding	>97 µM
CC[C@H](C)C=C(C)/C=C/C1=CC2=C(Cl)C(=O)[C@](C)(O)[C@H](CC(C)=O)C2=CO1		ELISA	3.9 µM
CC[C@H](C)/C=C(C)/C=C/C1=CC2=C(Br)C(=O)[C@]3(C)OC(=O)[C@@H](C(C)=O)[C@@H]3C2CO1		ELISA	2.5 µM
O=c1c(O)c(-c2ccc(O)cc2)oc2cc(O)cc(O)c12		binding	>100 µg/mL
CC[C@H](C)/C=C(C)/C=C/C1=CC2=C(Cl)C(=O)[C@](C)(O)C(=O)C2=CO1			2.6 µg/mL
O=S(=O)(O)c1cc(S(=O)(=O)O)c2c(Nc3ccnc4cc(Cl)ccc34)ccc(S(=O)(=O)O)c2c1		binding	1000 µg/mL
O=C(C=Cc1ccc(O)c(O)c1)O[C@@H]1C[C@](O)(C(=O)O)C[C@@H](O)[C@H]1O		ELISA	>400 µg/mL
O=C(O)/C=C/c1ccc[c]([Sb](=[O])([OH])[OH])c1		ELISA	1.29 µM
Cc1cn([C@H]2C[C@H](N=[N+]=[N-])[C@@H](CO)O2)c(=O)[nH]c1=O		binding	>100 µg/mL
O=C1c2c(O)cc(O)cc2O[C@H](c2ccc(O)cc2)[C@H]1O		ELISA	<20 µg/mL
CC[C@H](C)/C=C(C)/C=C/C1=CC2=CC(=O)[C@](C)(O)[C@H](O)[C@H]2CO1		ELISA	>300 µM
O=C1C[C@@H](c2cc(O)ccc2O)Oc2cc(O[C@@H]3C[C@@H](O)[C@H](O)[C@@H](CO)O3)cc(O)c21		ELISA	<16 µg/mL
CC[C@H](C)/C=C(C)/C=C/C1=CC2=C(Cl)C(=O)[C@](C)(O)[C@H](OC(C)=O)[C@H]2CO1		ELISA	96 µM
O=C(/C=C/c1ccc(O)c(O)c1)O[C@@H]1C[C@](OC(=O)/C=C/c2ccc(O)c(O)c2)(C(=O)O)C[C@@H](O)[C@H]1O	LAI	binding	>83 µM
O=C1c2c(O)cc(O[C@@H]3C[C@@H](O)[C@H](O)[C@@H](CO)O3)cc2O[C@H](c2ccc(O)cc2)[C@H]1O		ELISA	>250 µg/mL
CC[C@H](C)/C=C(C)/C=C/C1=CC2=C(Cl)C(=O)[C@](C)(OC(C)=O)C(=O)C2=CO1		ELISA	>250 µM
CCCCCCCCCCCCCCCC(=O)N(CCCCCCCCCCC(=O)O)CC(O)C(O)C(O[C@@H]1O[C@H](CO)[C@H](O)[C@H](O)[C@H]1O)C(O)CO		radiometric	0.7 µM
O=C(O[C@@H]1Cc2c(O)cc(O)cc2O[C@@H]1c1cc(O)c(O)c(O)c1)c1cc(O)c(O)c(O)c1		fluorescence	>50 µM
O=C1c2c(O)cc(O)c(O)c2O[C@H](c2ccc(O)cc2)[C@H]1O		ELISA	<50 µg/mL
CC[C@H](C)/C=C(C)/C=C/C1=CC2=CC(=O)[C@](C)(O)[C@H](OC(C)=O)[C@H]2CO1		ELISA	>270 µM
COC(=O)C(=O)N1CCC[C@H]1/C=C\[C@@H](Cc1ccccc1)C(=O)OCc1ccccc1		ELISA	>1000 µg/mL
CCC(C)/C=C(C)/C=C/C1=CC2=C(Cl)C(=O)[C@]3(C)OC(=O)C=C3C2=CO1			8.1 µg/mL

Repeating the first 3 entries:

| SMILES | strain | method | value |
|---|---|---|---|
| COC(=O)C(=O)N1CCC[C@@H]1C(=O)N[C@H](Cc1ccccc1)C(=O)OCc1ccccc1 |  | ELISA | 300 µM |
| O=C(/C=C/c1ccc(O)c(O)c1)O[C@@H]1CC(O)(C(=O)O)C[C@@H](OC(=O)/C=C/c2ccc(O)c(O)c2)C1O | LAI | binding | >97 µM |
| CC[C@H](C)C=C(C)/C=C/C1=CC2=C(Cl)C(=O)[C@](C)(O)[C@H](CC(C)=O)C2=CO1 |  | ELISA | 3.9 µM |